{"source": "PubChem BioAssay AID1259414 (Drosophila RNAi Screening Center, 2018)", "purpose": "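Fly genes that alter Wolbachia amount inside host cells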 (primary screen)", "system": "Drosophila JW18 cells infected with Wolbachia", "reagent": "long dsRNA against Drosophila genes, 0.25 µg dsRNA per well of a 384-well plate", "timing": "5 days", "challenge": "cells persistently infected with Wolbachia before knock-down; no added drug", "detection": "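Imaged fluorescence in situ signal for Wolbachia 23S rRNA per DAPI-counted host cell, given as a robust z-score within each plate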", "scale": "Wolbachia per cell robust z: higher = more Wolbachia per host cell than the plate typical", "hit rule": "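Active if absolute robust z reaches 1.5 in two or more of three replicates, leaving out multi- or no-target dsRNAs, genes unexpressed in JW18 and A1 wells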", "note": "In all, the deposit lists about 24,000 reagents; below is a random part of those that have a named target and a result. In the full data, about 1,210 (5%) are marked active. 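Inactive calls also include excluded dsRNAs with several or no targets, genes unexpressed in JW18, and well A1, regardless of score.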 Reagents against one gene are numbered here."}
{"predicted target":"CG34189","reagent no.":1,"Wolbachia per cell robust z, rep 1":0.623,"Wolbachia per cell robust z, rep 2":-0.597,"Wolbachia per cell robust z, rep 3":-0.201,"Call":"inactive"}
{"predicted target":"Arl6","reagent no.":1,"Wolbachia per cell robust z, rep 1":-0.362,"Wolbachia per cell robust z, rep 2":-1.16,"Wolbachia per cell robust z, rep 3":0.074,"Call":"inactive"}
{"predicted target":"Arl6","reagent no.":2,"Wolbachia per cell robust z, rep 1":-0.646,"Wolbachia per cell robust z, rep 2":0.384,"Wolbachia per cell robust z, rep 3":-3.17,"Call":"inactive"}
{"predicted target":"CG34417","reagent no.":1,"Wolbachia per cell robust z, rep 1":-0.356,"Wolbachia per cell robust z, rep 2":-6.69,"Wolbachia per cell robust z, rep 3":-1.98,"Call":"active"}
{"predicted target":"CG34417","reagent no.":2,"Wolbachia per cell robust z, rep 1":0.0233,"Wolbachia per cell robust z, rep 2":0.171,"Wolbachia per cell robust z, rep 3":-4.68,"Call":"inactive"}
{"predicted target":"CG34417","reagent no.":3,"Wolbachia per cell robust z, rep 1":-0.368,"Wolbachia per cell robust z, rep 2":-3.87,"Wolbachia per cell robust z, rep 3":-0.752,"Call":"inactive"}
{"predicted target":"Nost","reagent no.":1,"Wolbachia per cell robust z, rep 1":-0.377,"Wolbachia per cell robust z, rep 2":-0.785,"Wolbachia per cell robust z, rep 3":-1.63,"Call":"inactive"}
{"predicted target":"Nost","reagent no.":2,"Wolbachia per cell robust z, rep 1":-0.711,"Wolbachia per cell robust z, rep 2":0.374,"Wolbachia per cell robust z, rep 3":0.35,"Call":"inactive"}
{"predicted target":"Nost","reagent no.":3,"Wolbachia per cell robust z, rep 1":-0.657,"Wolbachia per cell robust z, rep 2":-0.939,"Wolbachia per cell robust z, rep 3":1.7,"Call":"inactive"}
{"predicted target":"Nost","reagent no.":4,"Wolbachia per cell robust z, rep 1":0.376,"Wolbachia per cell robust z, rep 2":1.04,"Wolbachia per cell robust z, rep 3":1.27,"Call":"inactive"}
{"predicted target":"eIF2Bgamma","reagent no.":1,"Wolbachia per cell robust z, rep 1":-0.959,"Wolbachia per cell robust z, rep 2":-0.295,"Wolbachia per cell robust z, rep 3":-3.35,"Call":"inactive"}
{"predicted target":"eIF2Bgamma","reagent no.":2,"Wolbachia per cell robust z, rep 1":-2.18,"Wolbachia per cell robust z, rep 2":-2.11,"Wolbachia per cell robust z, rep 3":-0.0853,"Call":"active"}
{"predicted target":"CG17258","reagent no.":1,"Wolbachia per cell robust z, rep 1":-1.14,"Wolbachia per cell robust z, rep 2":0.679,"Wolbachia per cell robust z, rep 3":-0.155,"Call":"inactive"}
{"predicted target":"CG17258","reagent no.":2,"Wolbachia per cell robust z, rep 1":-1.29,"Wolbachia per cell robust z, rep 2":-0.632,"Wolbachia per cell robust z, rep 3":0.583,"Call":"inactive"}
{"predicted target":"CG17258","reagent no.":3,"Wolbachia per cell robust z, rep 1":-0.448,"Wolbachia per cell robust z, rep 2":-0.408,"Wolbachia per cell robust z, rep 3":0.137,"Call":"inactive"}
{"predicted target":"CG3597","reagent no.":1,"Wolbachia per cell robust z, rep 1":2.02,"Wolbachia per cell robust z, rep 2":1,"Wolbachia per cell robust z, rep 3":0.86,"Call":"inactive"}
{"predicted target":"CG3597","reagent no.":2,"Wolbachia per cell robust z, rep 1":-0.069,"Wolbachia per cell robust z, rep 2":-0.261,"Wolbachia per cell robust z, rep 3":0.355,"Call":"inactive"}
{"predicted target":"eIF4EHP","reagent no.":1,"Wolbachia per cell robust z, rep 1":0.28,"Wolbachia per cell robust z, rep 2":-0.00453,"Wolbachia per cell robust z, rep 3":0.307,"Call":"inactive"}
{"predicted target":"eIF4EHP","reagent no.":2,"Wolbachia per cell robust z, rep 1":-1.91,"Wolbachia per cell robust z, rep 2":-0.787,"Wolbachia per cell robust z, rep 3":-0.0351,"Call":"inactive"}
{"predicted target":"CG12729","reagent no.":1,"Wolbachia per cell robust z, rep 1":1.08,"Wolbachia per cell robust z, rep 2":-0.282,"Wolbachia per cell robust z, rep 3":-0.597,"Call":"inactive"}
{"predicted target":"CG12729","reagent no.":2,"Wolbachia per cell robust z, rep 1":0.453,"Wolbachia per cell robust z, rep 2":1.04,"Wolbachia per cell robust z, rep 3":-0.657,"Call":"inactive"}
{"predicted target":"CG5863","reagent no.":1,"Wolbachia per cell robust z, rep 1":-3.34,"Wolbachia per cell robust z, rep 2":0.607,"Wolbachia per cell robust z, rep 3":-1.84,"Call":"inactive"}
{"predicted target":"ng1","reagent no.":1,"Wolbachia per cell robust z, rep 1":1.04,"Wolbachia per cell robust z, rep 2":-0.121,"Wolbachia per cell robust z, rep 3":-0.481,"Call":"inactive"}
{"predicted target":"ACXC","reagent no.":1,"Wolbachia per cell robust z, rep 1":-0.0211,"Wolbachia per cell robust z, rep 2":-0.162,"Wolbachia per cell robust z, rep 3":-0.818,"Call":"inactive"}

Entries above called active, once more:
{"predicted target":"CG34417","reagent no.":1,"Wolbachia per cell robust z, rep 1":-0.356,"Wolbachia per cell robust z, rep 2":-6.69,"Wolbachia per cell robust z, rep 3":-1.98,"Call":"active"}
{"predicted target":"eIF2Bgamma","reagent no.":2,"Wolbachia per cell robust z, rep 1":-2.18,"Wolbachia per cell robust z, rep 2":-2.11,"Wolbachia per cell robust z, rep 3":-0.0853,"Call":"active"}
